Measured values from several laboratories, pooled; numbers as filed in NIAID ChemDB.

All rows: tests in culture; organism: Plasmodium falciparum; endpoint: EC50

Rows are shuffled and stem from different studies. ECn: concentration that inhibits the pathogen or its effect by n%. Blank or dashed fields: not listed here.

SMILES,method,setting,cell line,strain,mutations,result
CC1CC2CCCC3CC(CCc4cccc(Cl)c4)N=C(N1)N32,LDH,-,-,D6,-,2.41 µM
N=C(N)c1cccc(OCCCCCCOc2cccc(C(=N)N)c2)c1,hypoxanthine uptake,-,-,W2,-,0.114 µM
c1ccc(CC[C@@H]2C[C@@H]3CCC[C@@H]4C[C@H](CCc5ccccc5)NC(=N2)N43)cc1,LDH,-,-,D6,-,6.2 µM
CCN(CC)CCCC(C)Nc1ccnc2cc(Cl)ccc12,SYBR Green / fluorescence,-,-,KAE609R-1,KAE609-resistant pfatp4 I398F/P990R/D1247Y,0.0123 µM
Cc1[nH]nc2c1C(c1cc(C#N)cc(-c3ccc(C(=O)N(C)C)s3)c1)(C(C)C)C(C#N)=C(N)O2,radiometric,-,-,K1,-,0.13 µM
N=C(N)c1ccc(OCCCCOc2ccc(C(=N)N)cc2[N+](=O)[O-])c([N+](=O)[O-])c1,hypoxanthine uptake,-,-,W2,-,0.112 µM
Cc1[nH]nc2c1C(c1cc(Cl)cc(C#N)c1)(C(C)C)C(C#N)=C(N)O2,radiometric,-,-,NF54,-,0.55 µM
N=C(N)c1ccc(OCCOc2ccc(C(=N)N)cc2[N+](=O)[O-])c([N+](=O)[O-])c1,hypoxanthine uptake,-,-,W2,-,0.768 µM
Cc1[nH]nc2c1C(c1cc(Cl)cc(C(F)(F)F)c1)(C(C)C)C(C#N)=C(N)O2,radiometric,-,-,NF54,-,0.49 µM
Cc1cccc(CCC2CC3CCCC4CC(C)NC(=N2)N34)c1,LDH,-,-,D6,-,5.78 µM
C[C@H]1CCc2c([nH]c3ccccc23)[C@@]2(N1)C(=O)Nc1ccc(Cl)cc12,SYBR Green / fluorescence,-,-,KAE678R-3,KAE678-resistant (I203M/I263V),0.291 µM
CCN(CC)CCCNC(=O)c1ccc(-c2cc(C#N)cc(C3(C(C)C)C(C#N)=C(N)Oc4n[nH]c(C)c43)c2)s1,radiometric,-,-,TM90C2B,-,1.85 µM
CC[C@H]1OC(=O)[C@H](C)[C@@H](OC2C[C@@](C)(OC)[C@@H](O)[C@H](C)O2)[C@H](C)[C@@H](OC2O[C@H](C)C[C@H](N(C)C)[C@H]2O)[C@](C)(OC2C[C@@H](O)[C@H](O)[C@H](C)O2)C[C@@H](C)C(=O)[C@H](C)[C@@H](O)[C@]1(C)O,fluorescence,48 h,RBC,3D7,-,60.9 µM
COc1cc2c(NC3CCN(C)CC3)nc(N3CCCN(C)CC3)nc2cc1OCc1ccccc1,fluorescence,-,-,7G8,-,0.049 µM
c1ccc(CC[C@@H]2C[C@@H]3CC[C@@H]4C[C@H](CCc5ccccc5)NC(=N2)N43)cc1,LDH,-,-,D6,-,6.16 µM
Cn1nc(C(F)(F)F)c(-c2ccc(Br)cc2)c1NC(=O)Nc1ccc(F)cc1F,SYBR Green / fluorescence,-,-,KAE609R-1,KAE609-resistant (I398F/P990R/D1247Y),1.07 µM
CC[C@H]1OC(=O)[C@H](C)[C@@H](OC2C[C@@](C)(OC)[C@@H](O)[C@H](C)O2)[C@H](C)[C@@H](OC2O[C@H](C)C[C@H](N(C)C)[C@H]2O)[C@](C)(OC2C[C@@H](N(C)C)[C@@H](O)[C@H](C)O2)C[C@@H](C)CN(C)[C@H](C)[C@@H](O)[C@]1(C)O,fluorescence,48 h,RBC,W2 Mef,-,1.8 µM
N=C(N)c1ccc(NCCCCCNc2ccc(C(=N)N)cc2)cc1,hypoxanthine uptake,-,-,D6,-,0.03 µM
Cc1[nH]nc2c1C(c1cc(Cl)cc(-c3cccc(C#N)c3)c1)(C1CCC1)C(C#N)=C(N)O2,radiometric,-,-,NF54,-,0.46 µM
N=C(N)c1ccc(NCCCCCCNc2ccc(C(=N)N)cc2N)c(N)c1,hypoxanthine uptake,-,-,D6,-,0.079 µM
COC(=O)c1ccc(-c2cc(C#N)cc(C3(C4CCC4)C(C#N)=C(N)Oc4n[nH]c(C)c43)c2)s1,radiometric,-,-,NF54,-,0.04 µM
N=C(N)c1ccc(OCCCCOc2ccc(C(=N)N)cc2)cc1,hypoxanthine uptake,-,-,W2,-,0.26 µM
Cc1cccc(CC[C@H]2C[C@H]3CCC[C@H]4C[C@@H](CCc5cccc(C)c5)NC(=N2)N34)c1,LDH,-,-,W2,-,2.26 µM
N=C(N)c1ccc(NCCCCCNc2ccc(C(=N)N)cc2[N+](=O)[O-])c([N+](=O)[O-])c1,hypoxanthine uptake,-,-,D6,-,0.109 µM
Cc1[nH]nc2c1C(c1cc(C#N)cc(-c3ccc(C(=O)NCCCN4CCN(C)CC4)s3)c1)(C(C)C)C(C#N)=C(N)O2,radiometric,-,-,K1,-,1.19 µM
CCCCC[C@@H]1C[C@@H]2CCC[C@@H]3C[C@H](CCCCC)NC(=N1)N32,LDH,-,-,D6,-,2.25 µM
CCC1(c2cc(Cl)cc(Cl)c2)C(C#N)=C(N)Oc2n[nH]c(C)c21,radiometric,-,-,NF54,-,>2.86 µM
CCCC[C@@H]1C[C@@H]2CCC[C@@H]3C[C@H](CCCC)NC(=N1)N32,LDH,-,-,W2,-,4.81 µM
N=C(N)c1ccc(OCCCCCCOc2ccc(C(=N)N)cc2)cc1,hypoxanthine uptake,-,-,W2,-,0.256 µM
CCCCC1CC2CCCC3CC(C)NC(=N1)N23,LDH,-,-,W2,-,5.62 µM
CCCCOC(=O)CC[C@H](NC(=O)c1ccc(-c2cc(C#N)cc(C3(C(C)C)C(C#N)=C(N)Oc4n[nH]c(C)c43)c2)s1)C(=O)OCCCC,radiometric,-,-,TM90C2B,-,2.6 µM

The last 2 rows once more:

SMILES	method	setting	cell line	strain	mutations	result
CCCCC1CC2CCCC3CC(C)NC(=N1)N23	LDH	-	-	W2	-	5.62 µM
CCCCOC(=O)CC[C@H](NC(=O)c1ccc(-c2cc(C#N)cc(C3(C(C)C)C(C#N)=C(N)Oc4n[nH]c(C)c43)c2)s1)C(=O)OCCCC	radiometric	-	-	TM90C2B	-	2.6 µM